A mixed list of measured activities; the numbers were collected in NIAID ChemDB.

Shared fields: tests in culture; agent: Mycobacterium tuberculosis

A number after MIC or MFC names an inhibition level or a share of isolates.

compound	measure	changes	method	dose	strain	result
OCc1ccccc1Sc1ccccc1CNCCNCCc1ccc(F)cc1	MIC					50 µM
CO[C@H]1/C=C/O[C@@]2(C)Oc3c(C)c(O)c4c(O)c(c(/C=N/N5CCN(C/C=C/c6ccccc6)CC5)c(O)c4c3C2=O)NC(=O)/C(C)=C\C=C\[C@H](C)[C@H](O)[C@@H](C)[C@@H](O)[C@@H](C)[C@H](OC(C)=O)[C@@H]1C	MIC				MTB2 (INH-R)	0.25 µg/mL
COc1ccc2oc(=O)n(-c3ccc(C#N)cc3)c(=O)c2c1	MIC				CNCTC MY331/88	32 µM
CCN1CN(CC)CN(CC)C1	MIC				H37Rv	>100 µg/mL
O=c1oc2ccc(Br)cc2c(=O)n1-c1ccc(C(F)(F)F)cc1	MIC				CNCTC MY331/88	1 µM
NNC(=O)c1ccncc1	MIC	Rifampicin- and isoniazid-resistant	broth dilution		Clinical isolate 565	≥10 µM
CC[C@H]1OC(=O)[C@H](C)[C@@H](O[C@H]2C[C@@](C)(OC)[C@@H](O)[C@H](C)O2)[C@H](C)[C@@H](O[C@@H]2O[C@H](C)C[C@H](N(C)C)[C@H]2O)[C@](C)(OC)C[C@@H](C)C(=O)[C@H](C)[C@@H](O)[C@]1(C)O	MBC90				MDR	>8 µg/mL
CCOC(=O)c1cn2c3c(cccc3c1=O)CC2	inhibition		BACTEC	12.5 µg/mL	H37Rv	18%
CO[C@H]1/C=C/O[C@@]2(C)Oc3c(C)c(O)c4c(O)c(c(/C=N/N5CCN(C6CCCC6)CC5)c(O)c4c3C2=O)NC(=O)/C(C)=C\C=C\[C@H](C)[C@H](O)[C@@H](C)[C@@H](O)[C@@H](C)[C@H](OC(C)=O)[C@@H]1C	MIC				1028	0.08 µg/mL
O=C(Oc1c(O)c2ccccc2c2ccccc12)c1ccccc1	inhibition		resazurin	6.25 µg/mL	H37Rv	101%
CCSc1nc(Cl)nc2nc[nH]c12	MIC				H37Ra	>12.8 µg/mL
NCC[C@H](O)C(=O)N[C@@H]1C[C@H](N)[C@@H](O[C@H]2O[C@H](CN)[C@@H](O)[C@H](O)[C@H]2O)[C@H](O)[C@H]1O[C@H]1O[C@H](CO)[C@@H](O)[C@H](N)[C@H]1O	MIC		broth dilution / resazurin		MDR6	1 µg/mL
C=C(C)C1CC=C(C)/C(=N\O)C1	MIC				H37Rv	100 µg/mL
COc1cc2c(c3c1c(=O)c1ccccc1n3C)C=C([N+](=O)[O-])C(C)(C)O2	inhibition		BACTEC	12.5 µg/mL	H37Rv	24%
O=c1oc2ccc(Br)cc2c(=O)n1-c1ccc(Br)cc1	MIC				CNCTC MY331/88	4 µM
Cc1ccc(C(=O)Nc2ccc(S(=O)(=O)O)c3cc(S(=O)(=O)O)cc(S(=O)(=O)O)c23)cc1NC(=O)c1cccc(NC(=O)Nc2cccc(C(=O)Nc3cc(C(=O)Nc4ccc(S(=O)(=O)O)c5cc(S(=O)(=O)O)cc(S(=O)(=O)O)c45)ccc3C)c2)c1	inhibition		BACTEC	12.5 µg/mL	H37Rv	28%
CC1CN(c2cc3c(cc2F)c(=O)c(C(=O)O)cn3-c2ccc(F)cc2F)CCN1	MIC				ATCC 35820	0.5 µg/mL
COc1ccc(CCNCCNCc2ccc(OC)c(OC)c2)cc1	MIC					25 µM
O=C(O)/C=C/c1ccc([N+](=O)[O-])o1	MIC bound		resazurin		H37Rv	>6.25 µg/mL
CO/C(C)=C1/NC(=O)[C@H]([C@@H](C)O)NC(=O)c2csc(n2)-c2cc(O)c(-c3nc(C(=O)NCCCN4CCOCC4)cs3)nc2-c2csc(n2)[C@@H]2COC(=O)c3c4c5c(cccc5n3O)COC(=O)[C@@H](O[C@H]3C[C@](C)(O)[C@H](N(C)C)[C@H](C)O3)[C@@H](OC4)[C@H](NC(=O)c3csc1n3)c1nc(cs1)C(=O)N2	MIC		broth dilution		H37Rv	≤2.5 µM
COC(=O)C12OC[C@]34[C@H]([C@@H](O)[C@@H]1O)[C@@]1(C)C=C(O[C@@H]5O[C@H](CO)[C@@H](O)[C@H](O)[C@H]5O)C(=O)[C@@H](C)[C@@H]1C[C@H]3OC(=O)[C@H](OC(=O)/C=C(\C)C(C)C)[C@@H]24	MIC		BACTEC		H37Rv	≥12.5 µg/mL
CC(C)=CCC/C(C)=C/CNCCNCCc1cccs1	MIC					50 µM
C[C@H]1COc2c(N3CCN(C)CC3)c(F)cc3c(=O)c(C(=O)O)cn1c23	MIC				Strain 158	>16 µg/mL
CCOC(=O)CC(C#N)(CC(=O)OCC)C(=O)OCC	MIC				H37Rv	>100 µg/mL
CO/C(C)=C1/NC(=O)[C@H]([C@@H](C)O)NC(=O)c2csc(n2)-c2cc(O)c(-c3nc(C(=O)NNC(=O)c4cc(-c5ccco5)[nH]n4)cs3)nc2-c2csc(n2)[C@@H]2COC(=O)c3c4c5c(cccc5n3O)COC(=O)[C@@H](O[C@H]3C[C@](C)(O)[C@H](N(C)C)[C@H](C)O3)[C@@H](OC4)[C@H](NC(=O)c3csc1n3)c1nc(cs1)C(=O)N2	MIC		broth dilution		Clinical Isolate 913	10–100 µM
COc1ccc(OC)c(Sc2ncnc3nc[nH]c23)c1	MIC90				H37Rv	>6.25 µg/mL
CCN(CC)CCC(=O)OC1/C(C)=C/C(C)C(=O)CC(C(C)CC2CCC(O)C(OC)C2)OC(=O)C2CCCCN2C(=O)C(=O)[C@@]2(O)OC(CCC2C)CC(OC)\C(C)=C/C=C/C=C/C(C)CC(C)C(=O)C1OC	inhibition		BACTEC	12.5 µg/mL	H37Rv	-1%
NNC(=O)c1ccncc1	MIC				Strain 361	8 µg/mL
COc1ccc(-c2ccc3cccc(C)c3n2)cc1	MIC				H37Rv	>100 µg/mL
CCCCCCCCCCCNCCNCC(c1ccccc1)c1ccccc1	MIC					12.5 µM
CC(=O)OC1CC2CC1C/C2=N\Nc1ccc(C)cc1	MIC bound		BACTEC		H37Rv	>12.5 µg/mL
CC[C@@H](CO)NCCN[C@@H](CC)CO	MIC				Isolate 2	8 µg/mL
COc1cccc(CSc2ccncc2)c1	MIC				H37Ra	>12.8 µg/mL
Nc1ccc(CC(N)C(=O)O)cc1	MIC				H37Rv	>100 µg/mL
C=C(NC(=O)c1csc(-c2nc3c(cc2O)-c2nc(cs2)C(=O)N[C@@H]([C@@H](C)O)C(=O)N/C(=C(\C)OC)c2nc(cs2)C(=O)N[C@@H]2c4nc(cs4)C(=O)N[C@@H](COC(=O)c4c5c6c(cccc6n4O)COC(=O)[C@@H](O[C@H]4C[C@](C)(O)[C@H](N(C)C)[C@H](C)O4)[C@H]2OC5)c2nc-3cs2)n1)C(N)=O	MIC		broth dilution		Clinical isolate 12850	≤2.5 µM
COc1ccccc1C(=O)CC(=O)Nc1ccc(NS(=O)(=O)c2ccc(C)cc2)cc1Cl	MIC				H37Rv	>100 µg/mL
O=C1Nc2c(Cl)cc(Cl)cc2/C1=N/N=C/c1ccco1	inhibition		BACTEC	12.5 µg/mL	H37Rv	47%
C[C@@H]1[C@@H](NCCNCCc2ccc(Cl)cc2Cl)C[C@H]2C[C@@H]1C2(C)C	MIC					50 µM
CO[C@H]1/C=C/O[C@@]2(C)Oc3c(C)c(O)c4c(=O)c(c5oc6cc(N7CCN(CC(C)C)CC7)cc(=O)c6nc5c4c3=C2O)NC(=O)/C(C)=C\C=C\[C@H](C)[C@H](O)[C@@H](C)[C@@H](O)[C@@H](C)[C@H](OC(C)=O)[C@@H]1C	MIC				TN1916	16 µg/mL
O=C(O)c1cc(Br)ccc1O	MIC				H37Rv	100 µg/mL
CC(C)(C)c1ccc(CSc2nc(=O)[nH]c3nc[nH]c23)cc1	inhibition			6.25 µg/mL	H37Rv	32%
c1ccc(N=Nc2ccccc2)cc1	MIC				H37Rv	>100 µg/mL
Oc1ccc2c3c1OC1/C(=N/N=C4\CCC5(O)C6Cc7ccc(O)c8c7C5(CCN6CC5CC5)C4O8)CCC4(O)C(C2)N(CC2CC2)CCC314	inhibition		BACTEC	12.5 µg/mL	H37Rv	18%
O=S(=O)(Nc1nccs1)c1ccccc1	MIC				H37Rv	>100 µg/mL
CCOC(=O)C(NC(=O)c1ccccc1)(c1ccc(S(=O)(=O)Nc2onc(C)c2C)cc1)C(F)(F)F	inhibition		BACTEC	12.5 µg/mL	H37Rv	0%
NC1CCN(c2nc3c(cc2F)c(=O)c(C(=O)O)cn3-c2ccc(F)cc2F)C1	MIC				ATCC 35828	8 µg/mL
C[C@H](NCCNCCc1ccc(Cl)cc1Cl)C1CCCCC1	MIC					50 µM
Cc1ccc(S(=O)(=O)ONNc2nccc3ccccc23)cc1	inhibition		BACTEC	12.5 µg/mL	H37Rv	-8%
Oc1ccccc1C=NCCN=Cc1ccccc1O	MIC				H37Rv	>100 µg/mL
Cc1cccc(Sc2nc(Cl)nc3nc[nH]c23)c1	MIC				H37Ra	>12.8 µg/mL
N[C@]1(C(=O)O)CC[C@H](C(=O)O)C1	MIC bound		BACTEC		H37Rv	>12.5 µg/mL
CC1COc2c(N3CCN(C)CC3)c(F)cc3c(=O)c(C(=O)O)cn1c23	MIC				ATCC 35822	1 µg/mL
Nc1ncnc(N)c1NC(=O)c1cccnc1	MIC		BACTEC		H37Rv	≥12.5 µg/mL
Cc1ccc(-n2c(=O)oc3ccc(C)cc3c2=O)cc1	MIC				CNCTC MY331/88	62 µM
CO[C@H]1/C=C/O[C@@]2(C)Oc3c(C)c(O)c4c(O)c(c(/C=N/N5CCN(C)CC5)c(O)c4c3C2=O)NC(=O)/C(C)=C\C=C\[C@H](C)[C@H](O)[C@@H](C)[C@@H](O)[C@@H](C)[C@H](OC(C)=O)[C@@H]1C	MIC		broth dilution		Clinical isolate 11677	≤0.1 µM
NC(=O)c1cnccn1	MIC				T5721/NIACIN+	>2048 µg/mL
CC(NC(C)c1ccccc1)c1ccccc1	MIC				H37Rv	25 µg/mL
CC(=O)[C@]1(O)CC[C@@]2(O)[C@]1(C)[C@H](OC(=O)c1ccc(O)cc1)C[C@@H]1[C@@]3(C)CC[C@H](O)CC3=CC[C@]12O	inhibition		BACTEC	12.5 µg/mL	H37Rv	-1%
O=[N+]([O-])c1ccc2c(c1)Cc1cccc([N+](=O)[O-])c1-2	MIC				H37Rv	>100 µg/mL
O=C1NOCC1NCc1c(O)ccc2ccccc12	inhibition		BACTEC	12.5 µg/mL	H37Rv	83%
Br.COc1ccc2nc(-c3ccccc3)cc(C(=O)CBr)c2c1	MIC				H37Rv	>100 µg/mL
COc1ccccc1Sc1ccncc1	MIC				H37Ra	>12.8 µg/mL
O=Cc1cc(Br)ccc1O	MIC				H37Rv	>100 µg/mL
NNC(=O)c1ccncc1	MIC				Isolate 7	4 µg/mL
CC(=O)Nc1cccc2cccnc12	MIC				H37Rv	>100 µg/mL
COc1ccc(C2CC(c3c(C)nn(-c4ccccc4)c3-c3ccc(C)cc3O)=NN2c2ccccc2)cc1	inhibition		resazurin	6.25 µg/mL	H37Rv	10%
Cc1csc(/C=C/C(=C\Cc2scc(C)[n+]2C)c2scc(C)[n+]2C)[n+]1C	MIC				H37Rv	>100 µg/mL
NC[C@H]1O[C@H](O[C@H]2[C@H](O)[C@@H](O[C@H]3O[C@H](CO)[C@@H](O)[C@H](N)[C@H]3O)[C@H](N)C[C@@H]2N)[C@H](O)[C@@H](O)[C@@H]1O	MIC				Isolate 14	2 µg/mL
CC(C)N(C(=O)c1cnc2ccccc2c1)C(C)C.Cl	MIC				H37Rv	>100 µg/mL
Clc1nc(Sc2ncc[nH]2)c2[nH]cnc2n1	inhibition			6.25 µg/mL	H37Rv	5%
OCCCc1ccncc1	MIC				H37Rv	>100 µg/mL
CN(C)CCCn1c(=O)nc2n(-c3ccccc3)c3ccccc3nc-2c1=O	inhibition		BACTEC	12.5 µg/mL	H37Rv	24%
O=[N+]([O-])c1ccc(NCCNS(=O)(=O)c2ccccc2)cc1	MIC				H37Rv	>100 µg/mL
CCCCCCCCCCCNCCNCc1ccccc1	MIC					25 µM
CCCCNc1nc(N)nc(Nc2ccc(Br)cc2)c1N=O	inhibition		BACTEC	12.5 µg/mL	H37Rv	60%
Cl.NCCc1c(-c2cccnc2)[nH]c2ccccc12	MIC				H37Rv	>100 µg/mL
O=C1C=CC(=Nc2ccc(O)cc2)C=C1	inhibition		BACTEC	12.5 µg/mL	H37Rv	5%
COc1cccc(CSc2ncnc3nc[nH]c23)c1	MIC				H37Ra	>12.8 µg/mL

A second listing of 5 rows from above:

| compound | measure | changes | method | dose | strain | result |
|---|---|---|---|---|---|---|
| CC(C)=CCC/C(C)=C/CNCCNCCc1cccs1 | MIC |  |  |  |  | 50 µM |
| Nc1ncnc(N)c1NC(=O)c1cccnc1 | MIC |  | BACTEC |  | H37Rv | ≥12.5 µg/mL |
| NNC(=O)c1ccncc1 | MIC |  |  |  | Strain 361 | 8 µg/mL |
| COc1ccccc1Sc1ccncc1 | MIC |  |  |  | H37Ra | >12.8 µg/mL |
| Clc1nc(Sc2ncc[nH]2)c2[nH]cnc2n1 | inhibition |  |  | 6.25 µg/mL | H37Rv | 5% |

Conditions beyond the fields shown may differ between rows. a–b is a range or a potency band. An empty or dashed field is not shown. MIC bound comes from a single tested concentration. Inhibition is in % at the dose shown (toxicity tests: loss of growth or viability).